Reference: patent US7495011B2 (priority 2003, dated 2009)

Test system: SARS virus
Assay: Inhibition of SARS virus cytopathic effect in Vero cells (MTT assay)
Format: cell-based, SARS-associated coronavirus

In the case of `CC1(C)[C@@H](O[C@H]2O[C@H](C(=O)O)[C@@H](O)[C@H](O)[C@H]2O[C@@H]2O[C@H](C(=O)O)[C@@H](O)[C@H](O)[C@H]2O)CC[C@]2(C)[C@H]3C(=O)C=C4[C@@H]5C[C@@](C)(C(=O)O)CC[C@]5(C)CC[C@@]4(C)[C@]3(C)CC[C@@H]12` [Glycyrrhizin, glycyrrhizin], the “SI (Selection Index) = CC50/EC50” value is reported as over 66.

In the case of `Cc1c(O)cccc1C(=O)N[C@@H](CSc1ccccc1)[C@H](O)CN1C[C@H]2CCCC[C@H]2C[C@H]1C(=O)NC(C)(C)C` [Nelfinavir, nelfinavir], the “SI (Selection Index) = CC50/EC50” value is reported as 301.6.
